In PubChem BioAssay AID588519 (ICCB-Longwood Screening Facility, Harvard Medical School, 2011):
Only a part is listed here, and it is no random draw. Active and inactive are the calls of the source. No stated cut-off is given here; in the data, active means % elongation below about 90%; inactive means the rest, inconclusive results apart.

Target: Genome polyprotein (Poliovirus type 1 (strain Mahoney)) (UniProt P03300)
Assay: inhibitors of poliovirus polymerase RNA elongation – biochemical, fluorescence polarization, total intensity, primary screen (AID 588519)
Details: stronger effect = lower value, compound at 16.7 µg/mL

SMILES	% elongation
FC(F)(F)Oc1ccc(NC2CCNCC2)cc1	inactive: 99%
NC(=O)C1(Nc2ccc(F)cc2)CCNCC1	inactive: 103%
Cc1ccc(C(=O)NCC2(N(C)C)CCCCC2)o1	inactive: 106%
CCCCOc1ccccc1C(=O)NCC1(N2CCOCC2)CCCCC1	inactive: 105%
O=C(NCC1(N2CCOCC2)CCCCC1)c1ccccc1Br	inactive: 98%
c1ccc(CN2CCC(Nc3ccc4c(c3)OCO4)CC2)cc1	inactive: 96%
Cn1nc(C(=O)NCC2(N3CCCCC3)CCCCC2)c2ccccc2c1=O	inactive: 102%
CCOc1ccc(C(=O)NCC2(N3CCOCC3)CCCCC2)cc1	inactive: 105%
CC(C)(C)OC(=O)N1CCC(Nc2ccc(OC(F)(F)F)cc2)CC1	inactive: 103%
CCCOc1cccc(C(=O)NCC2(N3CCOCC3)CCCCC2)c1	inactive: 101%
O=C(NCC1(N2CCOCC2)CCCCC1)c1ccc(Cl)cc1	inactive: 97%
O=C(NCC1(N2CCOCC2)CCCCC1)c1ccc2nc[nH]c2c1	inactive: 106%
O=C1CCN(Cc2ccccc2)CC1	inactive: 105%
CCOC(=O)N1CCC(Nc2ccc(F)cc2)CC1	inactive: 100%
COc1ccccc1C(=O)NCC1(N2CCOCC2)CCCCC1	inactive: 109%
CCOC(=O)N1CCC(Nc2cccc(C)c2)CC1	inactive: 98%
COc1ccc(C(=O)NCC2(N3CCCCC3)CCCCC2)cc1	inactive: 107%
CCCN1CCC(Nc2ccc(OC)c(OC)c2)CC1	inactive: 99%
CC1CN(CCc2ccccc2)CCC1=O (stereo unspecified)	inactive: 106%
Cc1cnc(C(=O)NCC2(N3CCCCC3)CCCCC2)cn1	inactive: 101%
N#CC1(Nc2ccccc2)CCN(Cc2ccccc2)CC1	inactive: 99%

SMILES	% elongation
CCOc1ncccc1C(=O)NCC1(N(C)C)CCCCC1	inactive: 100%
COc1cc(C(=O)NCC2(N3CCOCC3)CCCCC2)cc(OC)c1OC	inactive: 105%
CCOc1ncccc1C(=O)NCC1(N2CCCCC2)CCCCC1	inactive: 100%
O=C(NCC1(N2CCCCC2)CCCCC1)c1n[nH]c2ccccc12	inactive: 90%
CN(C)C1(CNC(=O)c2ccc(C(C)(C)C)cc2)CCCCC1	inactive: 108%
CCN1CCC(Nc2ccc(F)cc2)CC1	inactive: 100%
CC(C)(C)c1ccc(C(=O)NCC2(N3CCOCC3)CCCCC2)cc1	inactive: 108%
O=c1[nH]c2ccccc2n1C1CCN(CCCC(c2ccc(F)cc2)c2ccc(F)cc2Cl)CC1 (stereo unspecified)	inactive: 100%
CC1CN(CCc2ccccc2)C(C)CC1=O (stereo unspecified)	inactive: 112%
CN(C)c1ccc(C(=O)NCC2(N3CCCCC3)CCCCC2)cc1	inactive: 107%
Cc1ccccc1C(=O)NCC1(N(C)C)CCCCC1	inactive: 107%
O=C(NCC1(N2CCOCC2)CCCCC1)c1ccc([N+](=O)[O-])cc1	inactive: 106%
O=C(NCC1(N2CCOCC2)CCCCC1)c1ccccc1[N+](=O)[O-]	inactive: 106%
O=C(NCC1(N2CCOCC2)CCCCC1)c1cc2ccccc2cc1O	inactive: 99%
CCCN1CCC(Nc2cc(OC)cc(OC)c2)CC1	inactive: 101%
O=C(NCC1(N2CCOCC2)CCCCC1)c1ccccc1	inactive: 104%
Cc1c(C(=O)NCC2(N3CCOCC3)CCCCC2)oc2c(Cl)cccc12	inactive: 103%
NC(=O)C1(Nc2ccccc2)CCN(Cc2ccccc2)CC1	inactive: 103%
CN1CCC(Nc2ccc(F)cc2)CC1	inactive: 99%
O=C1CCN(CCc2ccccc2)CC1	inactive: 105%
